## Primary screen of a compound library

Data taken from ChEMBL document CHEMBL3988442, “University of Dundee, Small-Polar-MMV Screening Library” (2021).

A: 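Phenotypic screen: M. tuberculosis growth, glucose 7H9 medium, 3 days; the read-out is not stated. Concentration: 500 µM. Direction is inferred from retests: higher values go with more growth inhibition. About 18,000 compounds were tested under these conditions; 7.9% (about 1,400) showed 50% or more at least once.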
B: 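Phenotypic screen: M. tuberculosis growth, cholesterol and DPPC medium, 4 days; the read-out is not stated. Tested at 500 µM. Direction is inferred from retests: higher values go with more growth inhibition. Size under these conditions: about 18,000 compounds, about 900 of them at 50% or above in at least one test.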

Results are given as percent effect. The record does not define 0% and 100%; most values in the screen are far below 50% and negative numbers occur (in some assays of this library far below -100). Many other results are left out here, so strong results are more common than in the screen. A dash means the value is not listed here; it may have been measured.

SMILES	A	B
Cc1cccc(C(=O)Nc2ncc(C)s2)n1	-14.58%	-
c1ccc(-c2noc(CN3CCNCC3)n2)cc1	24.43%	26.93%
NC(=O)C[C@@H](N)c1ccccc1Cl	1.089%	-
CC(C)C1CN(C)CCN1Cc1ccncc1 (stereo unspecified)	-1.688%	-
CCS(=O)(=O)N1CC(F)(F)C[C@H]1c1nc(C)no1	7.38%	-
CS(=O)(=O)CCSCC(=O)Nc1ccccc1	11.54%	-
COc1ccc(NC(=O)CN)cc1Cl	21.09%	22.18%
CCc1nccn1CCN1CC2(CCOC2)CCC1=O (stereo unspecified)	2.136%	-
NC1CCN(c2ccc(C(F)(F)F)cn2)CC1	77.15%	57.84%
CC1CCN(C(=O)c2cnn(-c3cccnc3)c2)CC1	73.84%	60.92%
CC(SCc1cccc(S(=O)(=O)N(C)C)c1)C(N)=O (stereo unspecified)	-	10.27%
CN(C(=O)CN1CCCC1=O)C1CCCC1	-19.24%	-
COC(=O)COC(C)(C)C	-5.255%	-
CCn1c(CN(C)CC(=O)O)nnc1[C@H]1C[C@@H](N)C1	7.247%	-
NCC1CCN(Cc2cccc(F)c2)CC1	-	14.16%
CN(C(=O)Cc1c[nH]c(=O)[nH]c1=O)C1CCSCC1	-	-13.87%
CCCC(=O)Nc1cc(C(=O)OC)cc(C(=O)OC)c1	60.29%	-
CC(C)CC(=O)NC1CCN(C(C)C)CC1	-	23.48%
CCOC1CCN(C(=O)C(O)c2ccc(F)cc2)CC1 (stereo unspecified)	16.92%	-
CN(C)CCn1nccc1N	13.11%	-
OCc1cnc2c(F)cccc2c1	51.46%	-
CC(N)c1noc(-c2ccccc2)n1 (stereo unspecified)	37.6%	31.06%
CN(CC(=O)NC(N)=O)Cc1ccc(C(F)(F)F)cc1	-	-24.75%
CC1CNCCS(=O)(=O)C1 (stereo unspecified)	11.63%	-
CCN(CC)CCS(=O)(=O)c1ccccc1	93.96%	71.3%
CC(C)CNC(=O)CCN1C(=O)c2cccnc2C1=O	-	-1.205%
Cc1ccc(C(=O)N2CCCNCC2)cc1	1.861%	-
COc1ccccc1NC(=O)CN1CCCC1	-	-3.979%
CCN(C)C(C)(C)C(=O)Nc1ncccc1O	-0.8706%	-
O=C(CN1CCN(CCO)CC1)NCC(F)(F)F	-4.26%	-
Cc1ccc(C(=O)N2CCN(C(C)C(N)=O)CC2)s1 (stereo unspecified)	5.332%	-
COc1cccc(NC(=O)C2CCCN(C)C2)c1 (stereo unspecified)	-	17.05%
CCOCCN1CCN(C(=O)CN2CCCC2)CC1	-	-31.62%
CC(C)(C)C(=O)Nc1ccc(-n2cnnn2)cc1	-	8.807%
O=C(CSCCN1C(=O)CCC1=O)Nc1ccccc1	-	-3.358%
CC(CN)c1nc(-c2ccccc2)no1 (stereo unspecified)	55.6%	60.85%
COc1cc(NC(=O)NCc2nncn2C)ccc1Br	54.48%	-
CN1N=C(C(=O)N2CCCCCC2)CCC1=O	14.68%	-
COCCCNc1ccc(C(F)(F)F)cn1	-5.247%	2.212%
CCOC(=O)CCC(=O)c1ccc2c(c1)OCCO2	61.58%	78.94%
CCCS(=O)(=O)NCCc1noc(C)n1	-	-29.8%
O=C(NCc1ccccc1)N1CCNCC(O)C1 (stereo unspecified)	-	-16.47%
CCn1nccc1[C@@H]1OCCC[C@H]1CN	8.444%	-
O=C(NCCOc1cccc2cccnc12)C1CC1	25.62%	-
CC1CCCCN1S(=O)(=O)NCc1ccccn1 (stereo unspecified)	10%	-
CSc1ncccc1C(=O)NC(C)c1nc(C)c[nH]1 (stereo unspecified)	4.882%	2.671%
CN(CCc1ccc(Br)cc1)C(=O)CCCN	70.64%	-
N#Cc1ccc(C(=O)Nc2cncc(Br)c2O)nc1	8.005%	-
CCOc1ccc(C(=O)N2CCCC(C(N)=O)C2)cn1 (stereo unspecified)	24.88%	-
Cc1ocnc1CNC(=O)CN(C)C(=O)c1cccs1	-	-1.468%
CCC(C)NC(=O)CCN1C(=O)CCC1=O (stereo unspecified)	-	1.246%
Cc1cc(C(=O)NC2CCC(=O)N(C)C2)on1 (stereo unspecified)	-	0.9079%
CCN(CC)C(=O)N(C)Cc1nnc[nH]1	-7.07%	-
CC(C)c1nnc(CNC(=O)C2=COCCC2)n1C	-	-3.682%
CC(O)(CN)C1CCCC1 (stereo unspecified)	-	-11.27%
CNC(=O)C(C)Sc1nnnn1-c1ccccc1C (stereo unspecified)	65.12%	52.14%
CCC(CC)c1cc(N)on1	19.27%	-
NCc1nc(-c2cccc(Cl)c2)no1	57.25%	54.62%
CCCNS(=O)(=O)c1nc2nc(C)cc(C)n2n1	-9.632%	-
CCn1nnc(NC(=O)Cc2ccc(Cl)cc2)n1	40.17%	37.12%
COc1cccc2c1C(N)CO2 (stereo unspecified)	7.085%	-
C1CC(OCCN2CCOCC2)CCN1	3.178%	-
CC(=O)c1c(SCC(=O)NC2CC2)nc(=O)[nH]c1C	5.059%	-
O=C1NC(=O)c2c(O)cccc21	56.22%	62.05%
NS(=O)(=O)c1ccc(NC(=O)COC(=O)C2CC2)cc1	19%	-
Cc1ccc2cccc(OCC(C)CS(C)(=O)=O)c2n1 (stereo unspecified)	-2.807%	-
O=C(CNc1ccccc1F)NC1CC1	5.147%	-5.97%
COCC(O)CN(C)C(=O)c1cc(C)cc(F)c1 (stereo unspecified)	8.693%	4.204%
COC(=O)c1ccc(CCNC(=O)C2CCCO2)cc1 (stereo unspecified)	64.63%	60.93%
CC(=O)c1ccc(S(=O)(=O)N[C@H]2CCCNC2)cc1	-1.354%	-
CC1CNC(=O)CCN1Cc1ccc(S(C)(=O)=O)cc1 (stereo unspecified)	12.6%	-
Cn1cc(CN2CCCC(CO)(CC3CC3)C2)cn1 (stereo unspecified)	-	3.952%
CCNS(=O)(=O)C1CCN(Cc2cccnc2C)C1 (stereo unspecified)	19.84%	-
CC(C)c1nnsc1C(=O)N[C@@H]1COCC[C@H]1O	6.814%	-
CC(C)c1nnc[nH]1	-	-8.375%

Once more, the final 9:

{"smiles": "O=C(CNc1ccccc1F)NC1CC1", "A": 5.147, "B": -5.97}
{"smiles": "COCC(O)CN(C)C(=O)c1cc(C)cc(F)c1", "stereo": "stereo unspecified", "A": 8.693, "B": 4.204}
{"smiles": "COC(=O)c1ccc(CCNC(=O)C2CCCO2)cc1", "stereo": "stereo unspecified", "A": 64.63, "B": 60.93}
{"smiles": "CC(=O)c1ccc(S(=O)(=O)N[C@H]2CCCNC2)cc1", "A": -1.354}
{"smiles": "CC1CNC(=O)CCN1Cc1ccc(S(C)(=O)=O)cc1", "stereo": "stereo unspecified", "A": 12.6}
{"smiles": "Cn1cc(CN2CCCC(CO)(CC3CC3)C2)cn1", "stereo": "stereo unspecified", "B": 3.952}
{"smiles": "CCNS(=O)(=O)C1CCN(Cc2cccnc2C)C1", "stereo": "stereo unspecified", "A": 19.84}
{"smiles": "CC(C)c1nnsc1C(=O)N[C@@H]1COCC[C@H]1O", "A": 6.814}
{"smiles": "CC(C)c1nnc[nH]1", "B": -8.375}